The values that follow come from patent publication US20100262098A1, “ABSORBENT ARTICLE WITH ODOUR CONTROL SUBSTANCE” (SCA Hygiene Products AB, priority 2007, published 2010).

A short description of this series: Effect of lipid on liquid uptake of treated pulp. The note with it: same amount of lipid added to pulp.

In the case of `CCCCCCCCCCCCCCCCCC(=O)OCC(COC(=O)CCCCCCCCCCCCCCCCC)OC(=O)CCCCCCCCCCCCCCCCC` [tristearin], the “Effect on liquid uptake of treated pulp” value is “clear hydrophobization of the treated pulp”.
